This series deals with O=[N+]([O-])c1ccc(O[C@@H]2OC[C@@H](O)[C@H](O)[C@H]2O)cc1. The series can be described thus: purified protein. Particulars: McIlvaine buffer 50 mM pH 5.5, 40 °C, 0.1–25 mM substrate, 13.6 μM enzyme, 15 min.

This passage reports Km, kcat and kcat/Km results from PMC7242879, “Exploring the Molecular Basis for Substrate Affinity and Structural Stability in Bacterial GH39 β-Xylosidases” (Frontiers in Bioengineering and Biotechnology, 2020).

Turning to “XacXynB (Xanthomonas citri subsp. citri 306; K166D)”, the Michaelis-Menten constant (Km) is 4.06 ± 0.39 mM, the kcat was 3.65 s⁻¹ and the kcat/Km came to 900 M⁻¹ s⁻¹.

“XacXynB (Xanthomonas citri subsp. citri 306; D167G)”: the Km is reported as 5.79 ± 0.35 mM, the kcat was determined as 4.68 s⁻¹ and the kcat/Km stood at 808 M⁻¹ s⁻¹.
